The source of these data is paper PMC11326647, “In vitro reconstitution reveals membrane clustering and RNA recruitment by the enteroviral AAA+ ATPase 2C” (PLOS Pathogens, 2023).

The data set concerns the target T1, 2C (MBP removed by TEV in situ, bound to SUVs) (Poliovirus type 1 Mahoney) (UniProt P03300).
T1 sequence (looked up): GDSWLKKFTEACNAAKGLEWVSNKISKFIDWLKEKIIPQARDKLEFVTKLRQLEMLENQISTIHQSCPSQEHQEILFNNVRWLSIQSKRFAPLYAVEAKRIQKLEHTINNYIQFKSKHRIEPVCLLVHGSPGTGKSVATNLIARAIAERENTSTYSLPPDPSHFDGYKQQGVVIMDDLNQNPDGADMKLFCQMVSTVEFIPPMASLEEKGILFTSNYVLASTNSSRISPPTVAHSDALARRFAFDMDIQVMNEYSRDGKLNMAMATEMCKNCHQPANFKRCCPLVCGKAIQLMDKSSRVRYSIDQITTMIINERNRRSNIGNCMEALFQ
In words: binding assay. The conditions noted are these: 5 uM ssRNA, stronger effect than ssDNA; recombinant protein; residues 1128-1456; protein details: His6-MBP cleaved by TEV during assay.

Construct, isoform or probe ends are uncertain for at least one entry. At least one verdict was read from the data and is not stated in words by the source. Protein sequences can lack the tags named with them.

For the sequence “UGAAUGCGGCUAAUCCCAACCU [ssRNA 22-mer (oligo 7)]”, the binding result was “binds”.
